A mixed list of measured activities; the numbers were collected in NIAID ChemDB.

Common to all: growth or infection tests; species: Hepatitis C virus; read-out: EC50

Two numbers with a dash give a range or band. Lines come from different laboratories, so protocols vary. ECn is the concentration giving n% inhibition of infection, replication or growth. Blank or dashed fields: not listed here.

compound	strain	read by	value
CCOc1nc(NCc2ccc(F)c(Cl)c2)nc2ccc(-c3ccc(F)cc3)nc12	-	replicon	<0.1 µM
CN(C)C(=O)COC(=O)N1c2cccc(O)c2NC2=C(C(=O)CC(C)(C)C2)C1c1ccc(OCc2ccccc2)cc1Cl	1b	luciferase / reporter gene / replicon	3.73 µM
CC1CCC(C(=O)N(c2cc(-c3ccc(NC(=O)c4cncn4C)cc3)sc2C(=O)O)C(C)C)CC1	1a	replicon	>0.5 µM
CC1(C)CC(=O)C2=C(C1)Nc1c(O)cccc1N(C(=O)Cc1ccccc1)C2c1ccc(Cl)cc1Cl	1b	luciferase / reporter gene / replicon	3.33 µM
CC(C)n1ncc2cc(Cn3c(C(=O)O)c(-c4ccc[nH]c4=O)c4c5occc5c(F)cc43)c(Cl)nc21	-	replicon	0.5–1.5 µM
CC1(C)CC(=O)C2=C(C1)Nc1c(O)cccc1N(C(=O)OCC(=O)O)C2c1ccc(OCc2ccccc2)cc1F	1b	luciferase / reporter gene / replicon	25.38 µM
CS(=O)(=O)NC(=O)c1c(-c2ccc[nH]c2=O)c2c3occc3c(F)cc2n1Cc1ccc2nc(N)[nH]c2c1	-	replicon	<0.5 µM
CC(=O)N1c2cccc(O)c2NC2=C(C(=O)CC(C)(C)C2)C1c1ccc(OCc2cccc(Br)c2)cc1Cl	1b	luciferase / reporter gene / replicon	19.22 µM
CCOc1nc(NCc2ccc(F)cc2)nc2ccc(-c3ccc(C(=O)NC(C)(C)CN4CCOCC4)cc3)nc12	-	replicon	<0.1 µM
CC1(C)CC(=O)C2=C(C1)Nc1c(O)cccc1NC2c1ccc(Oc2ccccc2Cl)cc1Cl	1b	luciferase / reporter gene / replicon	9.9 µM
CC(C)(CN1CCCC1)NC(=O)c1ccc(-c2ccc3nc(NCc4ccc(S(N)(=O)=O)cc4)nc(NCC(F)(F)F)c3n2)cc1	-	replicon	<0.1 µM
NC(=O)COc1ccc2c(c1)S(=O)(=O)N=C(c1c(O)c3cc(F)ccc3n(CCC3CC3)c1=O)N2	1a 33781	replicon	1.1 µM
CC1CCC(C(=O)N(CC2CC2)c2cc(-c3ccc(NC(=O)c4cn(C)cn4)cc3)sc2C(=O)O)CC1	1b	replicon	<0.5 µM
CS(=O)(=O)NC(=O)c1c(-c2ccc[nH]c2=O)c2c3sccc3ccc2n1Cc1ccc(F)cc1F	-	replicon	>1.5 µM
CCn1ccc(C(=O)Nc2ccc(-c3cc(N(C(=O)C4CCC(C)CC4)C(C)C)c(C(=O)O)s3)cc2)n1	1b	replicon	<0.5 µM
CC1(C)CC(=O)C2=C(C1)Nc1c(O)cccc1N(C(=O)C1CCC1)[C@H]2c1ccc(OCc2ccccc2)cc1F	1b	luciferase / reporter gene / replicon	0.39 µM
CCS(=O)(=O)NC(=O)c1c(-c2ccc[nH]c2=O)c2c3ccccc3ccc2n1Cc1ccnc(N)c1	-	replicon	1–10 µM
CC1CCC(C(=O)N(CC2CC2)c2cc(-c3ccc(NC(=O)c4ccn(C)n4)cc3)sc2C(=O)O)CC1	1a	replicon	<0.5 µM
O=C(O)c1c(-c2ccc[nH]c2=O)c2c3occc3ccc2n1Cc1cc2ccccc2nc1Cl	-	replicon	<0.5 µM
CCOc1nc(N[C@H](C)c2ccccc2)nc2ccc(-c3ccc(F)cc3)nc12	-	replicon	<0.1 µM
CC(C)C(=O)N1c2cccc(O)c2NC2=C(C(=O)CC(C)(C)C2)C1/C=C/c1ccccc1[N+](=O)[O-]	1b	luciferase / reporter gene / replicon	25.64 µM
Cc1cc(C(=O)Nc2ccc(-c3cc(N(C(=O)C4CCC(C)CC4)C(C)C)c(C(=O)O)s3)cc2)no1	1a	replicon	<0.5 µM
Cc1cc2ccc3c(c(-c4ccc[nH]c4=O)c(C(=O)O)n3Cc3ccccc3F)c2o1	-	replicon	>1.5 µM
CS(=O)(=O)CCNc1nc(NCc2ccc(S(N)(=O)=O)cc2)nc2ccc(-c3ccc(F)cc3)nc12	-	replicon	<0.1 µM
Cn1cc(Cl)c(C(=O)N2c3cccc(O)c3NC3=C(C(=O)CC(C)(C)C3)C2c2ccc(OCc3ccccc3)cc2F)n1	1b	luciferase / reporter gene / replicon	1.49 µM

3 of the rows above, restated:

compound,strain,read by,value
Cc1cc2ccc3c(c(-c4ccc[nH]c4=O)c(C(=O)O)n3Cc3ccccc3F)c2o1,-,replicon,>1.5 µM
CCOc1nc(NCc2ccc(F)c(Cl)c2)nc2ccc(-c3ccc(F)cc3)nc12,-,replicon,<0.1 µM
CC1(C)CC(=O)C2=C(C1)Nc1c(O)cccc1N(C(=O)C1CCC1)[C@H]2c1ccc(OCc2ccccc2)cc1F,1b,luciferase / reporter gene / replicon,0.39 µM